Results: patent US20250145946A1, “GENERATION OF PURE RETINAL CELLS FROM HUMAN PLURIPOTENT STEM CELLS” (Wisconsin Alumni Research Foundation, priority 2023, published 2025)

Tested on: H9 human embryonic stem cells (hESCs)
Experiment: qPCR analysis of neural and retinal gene expression during hPSC neural/retina differentiation
Type: cell-based
Conditions: time course, BMP2 from day 6; FIG. 11a
Protocol: hPSCs (H9, IMR-90-4 and WC30) were maintained under E8/feeder-free culture condition and passaged at 1:20 ratio with Rock inhibitor. After each new passage, the cells were fed with E8 medium for another 1˜2 days to reach 30-40% confluence. To initiate retina differentiation, culture medium was replaced with Retina Induction Medium (RIM) containing Neural induction medium (NIM) comprising DMEM/F12 media containing 1% N2 and 1× nonessential amino acids (NEAA) supplemented with 10 μM SB431542 (TGF inhibitor, Stemgent, 04-0010-10); this new passage day was counted as day 0 (DO) of retina differentiation. Cells were then fed daily with RIM, or every other day based on the cell density. On day 4, the cells were dissociated by ReLeSR (STEM CELL) or EDTA and re-suspended in the fresh RIM containing 0.5 micromolar (μM) Rock inhibitor. Cell clusters were thereafter transferred to a cell culture flask and cultured in suspension. On day 5, the resulting cell spheres were fed with RIM without SB431542. […]
Total RNA was isolated with the RNeasy Plus Mini Kit according to the manufacturer's instructions. For quantitative PCR (qPCR), cDNA was synthesized using PrimeScript RT Reagent Kit (Takara). qPCR was performed using iTaq Universal SYBR Green Supermix (Bio-Rad). […]

B1: BMP2: bone morphogenic protein variant species; BMP activator (R&D SYSTEMS, 355-BM) (protein, UniProt P12643 283-396, looked up)
Bone morphogenetic protein 2: QAKHKQRKRLKSSCKRHPLYVDFSDVGWNDWIVAPPGYHAFYCHGECPFPLADHLNSTNHAIVQTLVNSVNSKIPKACCVPTELSAISMLYLDENEKVVLKNYQDMVVEGCGCR
Question: Which “expression of retinal lineage genes PAX6, SIX6 and VSX2 over time” value does the source give for B1 here?
Answer: increased
